PubChem BioAssay (NCATS)
The entries are a selection whose mix differs from that of the whole data set. Inconclusive results are not listed. Calls of active or inactive are those of the source. The call rests on the fitted dose curve; in most records, active means well fitted inhibition curve with a large enough effect; inconclusive means small, poorly fitted or top-dose-only effect; inactive means flat fitted curve, though single readings scatter.

Legend:
Test in all cases: qHTS profiling for inhibitors of Plasmodium falciparum proliferation (AID 504749); further: nearly all actives have a fitted effect of over 60% in size;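 on activity, negative = inhibition: 0% = DMSO vehicle and full inhibition = artemisinin control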
CP329 = conditions: P. falciparum in erythrocytes, SYBR Green DNA, 72 h; series mostly up to 28.7 µM
Summary of the method: (§1)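 P. falciparum-infected erythrocytes (0.3% parasitemia, 2.5% hematocrit) incubated with compound 72 h at 37 C, 5% CO2. Parasite DNA detected by SYBR Green after lysis, overnight at room temperature; normalised to 0.29 uM artemisinin and DMSO.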

CP335 = conditions: P. falciparum in erythrocytes, SYBR Green DNA, 72 h; series mostly up to 28.7 µM
Summary of the method: as §1

DFO2036 = conditions: P. falciparum in erythrocytes, SYBR Green DNA, 72 h; at 28.7 µM (top of the series) unless noted
Summary of the method: as §1

DIV14 = conditions: P. falciparum in erythrocytes, SYBR Green DNA, 72 h; at 28.7 µM (top of the series) unless noted
Summary of the method: as §1

DIV17 = conditions: P. falciparum in erythrocytes, SYBR Green DNA, 72 h; at 28.7 µM (top of the series) unless noted
Summary of the method: as §1

DIV30 = conditions: P. falciparum in erythrocytes, SYBR Green DNA, 72 h; at 28.7 µM (top of the series) unless noted
Summary of the method: as §1

Dd2 = conditions: P. falciparum in erythrocytes, SYBR Green DNA, 72 h; at 28.7 µM (top of the series) unless noted
Summary of the method: as §1

ECU = conditions: P. falciparum in erythrocytes, SYBR Green DNA, 72 h; at 28.7 µM (top of the series) unless noted
Summary of the method: as §1

FAB9 = conditions: P. falciparum in erythrocytes, SYBR Green DNA, 72 h; at 28.7 µM (top of the series) unless noted
Summary of the method: as §1

GB4 = conditions: P. falciparum in erythrocytes, SYBR Green DNA, 72 h; at 28.7 µM (top of the series) unless noted
Summary of the method: as §1

HB3 = conditions: P. falciparum in erythrocytes, SYBR Green DNA, 72 h; series mostly up to 28.7 µM
Summary of the method: as §1

ICS = conditions: P. falciparum in erythrocytes, SYBR Green DNA, 72 h; series mostly up to 28.7 µM
Summary of the method: as §1

JCK = conditions: P. falciparum in erythrocytes, SYBR Green DNA, 72 h; at 28.7 µM (top of the series) unless noted
Summary of the method: as §1

N140 = conditions: P. falciparum in erythrocytes, SYBR Green DNA, 72 h; at 28.7 µM (top of the series) unless noted
Summary of the method: as §1

P93_24 = conditions: P. falciparum in erythrocytes, SYBR Green DNA, 72 h; series mostly up to 28.7 µM
Summary of the method: as §1

P94_40 = conditions: P. falciparum in erythrocytes, SYBR Green DNA, 72 h; at 28.7 µM (top of the series) unless noted
Summary of the method: as §1

PAD = conditions: P. falciparum in erythrocytes, SYBR Green DNA, 72 h; series mostly up to 28.7 µM
Summary of the method: as §1

PC15 = conditions: P. falciparum in erythrocytes, SYBR Green DNA, 72 h; at 28.7 µM (top of the series) unless noted
Summary of the method: as §1

PC26 = conditions: P. falciparum in erythrocytes, SYBR Green DNA, 72 h; at 28.7 µM (top of the series) unless noted
Summary of the method: as §1

PC49 = conditions: P. falciparum in erythrocytes, SYBR Green DNA, 72 h; at 28.7 µM (top of the series) unless noted
Summary of the method: as §1
Potency means the concentration at half of the fitted maximal effect.

CC(C)OP(=O)(F)OC(C)C
inactive: Potency (CP329) | Potency (CP335) | activity, negative = inhibition (DFO2036) 0.983% | activity, negative = inhibition (DIV14) -4.67% | activity, negative = inhibition (DIV17) 2.26% | activity, negative = inhibition (DIV30) -10.6% | activity, negative = inhibition (Dd2) 4.72% | activity, negative = inhibition (ECU) 13% | activity, negative = inhibition (FAB9) 0.899% | activity, negative = inhibition (GB4) -6.35% | Potency (HB3) | Potency (ICS) | activity, negative = inhibition (JCK) -6.78% | activity, negative = inhibition (N140) 0.351% | Potency (P93_24) | activity, negative = inhibition (P94_40) -1.37% | Potency (PAD) | activity, negative = inhibition (PC15) -4.9% | activity, negative = inhibition (PC26) -6.27% | activity, negative = inhibition (PC49) -2.49%

C/C1=C2N=C(/C=C3N=C(/C(C)=C4\[N-][C@@](C)([C@H]5N=C1[C@@](C)(CCC(=O)NC[C@H](C)OP(=O)([O-])O[C@@H]1[C@H](O)[C@H](n6cnc7cc(C)c(C)cc76)O[C@@H]1CO)[C@@H]5CC(N)=O)[C@](C)(CC(N)=O)[C@H]4CCC(N)=O)[C@@](C)(CC(N)=O)[C@@H]\3CCC(N)=O)C(C)(C)[C@@H]/2CCC(N)=O.[C-]#N.[Co+3]
inactive: Potency (CP329) | Potency (CP335) | activity, negative = inhibition (DFO2036) 1.87% [at 12.8 µM] | activity, negative = inhibition (DIV14) -4.17% [at 12.8 µM] | activity, negative = inhibition (DIV17) 0.377% [at 12.8 µM] | activity, negative = inhibition (DIV30) 0.362% [at 12.8 µM] | activity, negative = inhibition (Dd2) 0.251% [at 12.8 µM] | activity, negative = inhibition (ECU) 9.22% [at 12.8 µM] | activity, negative = inhibition (FAB9) 0.957% [at 12.8 µM] | activity, negative = inhibition (GB4) -15.4% [at 12.8 µM] | Potency (HB3) | Potency (ICS) | activity, negative = inhibition (JCK) -11.5% [at 12.8 µM] | activity, negative = inhibition (N140) 4.01% [at 12.8 µM] | Potency (P93_24) | activity, negative = inhibition (P94_40) 5.76% [at 12.8 µM] | Potency (PAD) | activity, negative = inhibition (PC15) 6.72% [at 12.8 µM] | activity, negative = inhibition (PC26) -3.59% [at 12.8 µM] | activity, negative = inhibition (PC49) 1.38% [at 12.8 µM]

O=[N+]([O-])OCC(CO[N+](=O)[O-])(CO[N+](=O)[O-])CO[N+](=O)[O-]
active: Potency (CP329) 9.53 µM | Potency (CP335) 6.01 µM | Potency (HB3) 10 µM | Potency (ICS) 3.98 µM | Potency (P93_24) 10 µM | Potency (PAD) 6.31 µM
inactive: activity, negative = inhibition (DFO2036) -19.6% | activity, negative = inhibition (Dd2) -5.3% | activity, negative = inhibition (JCK) -9.18% | activity, negative = inhibition (N140) -14.3% | activity, negative = inhibition (P94_40) -26.8%

O=[N+]([O-])c1cccc([N+](=O)[O-])c1
inactive: Potency (CP329) | Potency (CP335) | activity, negative = inhibition (DFO2036) 4.73% | activity, negative = inhibition (DIV14) -5.12% | activity, negative = inhibition (DIV17) -10.4% | activity, negative = inhibition (DIV30) 8.96% | activity, negative = inhibition (Dd2) 1.81% | activity, negative = inhibition (ECU) 1.23% | activity, negative = inhibition (FAB9) 5.06% | activity, negative = inhibition (GB4) -15% | Potency (HB3) | Potency (ICS) | activity, negative = inhibition (JCK) 5.67% | activity, negative = inhibition (N140) -7.92% | Potency (P93_24) | activity, negative = inhibition (P94_40) 7% | Potency (PAD) | activity, negative = inhibition (PC15) 9.22% | activity, negative = inhibition (PC26) -1.57% | activity, negative = inhibition (PC49) 7.94%
